3 molecules from patent publication US11447502B2, “Antibacterial agents: dual-targeted RNA polymerase inhibitors” (priority 2018, dated 2022) can be followed below.

What all share (experiment): microbe, parasite or virus in culture
Holding throughout (format): cell-based

The subject of assay [1] is rifampin-resistant M. tuberculosis 10545 (rpoB-S′531′L). The note with it: Mycobacterium tuberculosis, read-out: antibacterial activity rifampin-resistant M. tuberculosis 10545 (rpoB-S′531′L) MIC.
In assay [2] the test system is rifampin-resistant M. tuberculosis 20626 (rpoB-H′526′D). The note with it: Mycobacterium tuberculosis, read-out: antibacterial activity rifampin-resistant M. tuberculosis 20626 (rpoB-H′526′D) MIC.
For assay [3], the system named is rifampin-resistant M. tuberculosis 4457 (rpoB-H′526′Y). The following applies: Mycobacterium tuberculosis, read-out: antibacterial activity rifampin-resistant M. tuberculosis 4457 (rpoB-H′526′Y) MIC.

Each structure is given as a SMILES string. Converted amounts (≈) assume the structure as drawn.

Consider `CO[C@H]1/C=C/O[C@@]2(C)Oc3c(C)c(O)c4c(O)c(c(/C=N/N5CCN(c6ccc(F)cc6NC(=O)C(Cc6ccccc6)NC(=O)c6ccccc6F)CC5)c(O)c4c3C2=O)NC(=O)/C(C)=C\C=C\[C@H](C)[C@H](O)[C@@H](C)[C@@H](O)[C@@H](C)[C@H](OC(C)=O)[C@@H]1C` (stereo partly drawn) [IX-398, Rifamycin SV—(CHN)—IX-214 Conjugate], for which the MIC in assay [1] was determined as 6.25 µg/mL (≈ 5.26 µM); in assay [2] it was 12.5 µg/mL (≈ 10.5 µM); in assay [3], 3.13 µg/mL (≈ 2.64 µM).

Regarding `[2H]C([2H])(c1ccccc1)C(NC(=O)c1ccccc1F)C(=O)Nc1cc(F)ccc1N1CCN(/N=C/c2c3c(O)c4c(O)c(C)c5c(c4c2O)C(=O)[C@@](C)(O/C=C/[C@H](OC)[C@@H](C)[C@@H](OC(C)=O)[C@H](C)[C@H](O)[C@H](C)[C@@H](O)[C@@H](C)/C=C/C=C(/C)C(=O)N3)O5)CC1` (stereo partly drawn) [IX-404a, Rifamycin SV—(CHN)—IX-370a Conjugate], the MIC in assay [1] stood at 6.25 µg/mL (≈ 5.26 µM); in assay [2], 25 µg/mL (≈ 21 µM); in assay [3], 3.13 µg/mL (≈ 2.63 µM).

Take `[2H]C([2H])(c1ccccc1)C(NC(=O)c1ccccc1F)C(=O)Nc1cc(F)ccc1N1CCN(C(=O)COc2cc3c(O)c4c(O)c(C)c5c(c24)C(=O)[C@@](C)(O/C=C/[C@H](OC)[C@@H](C)[C@@H](OC(C)=O)[C@H](C)[C@H](O)[C@H](C)[C@@H](O)[C@@H](C)/C=C/C=C(/C)C(=O)N3)O5)CC1` (stereo partly drawn) [IX-408a, Rifamycin B—IX-370a Conjugate]: the MIC in assay [1] worked out at 3.13 µg/mL (≈ 2.6 µM); in assay [2] it was 12.5 µg/mL (≈ 10.4 µM); in assay [3], 3.13 µg/mL (≈ 2.6 µM).
